Kd and EC50 data for one substance are collected here from publication PMC9296231.

pEC50, pKd: −log10 of the molar value.

Holding throughout (details): bispecific antibody
The target of assay [1] is SARS2 RBD Omicron BA.1 (SARS-CoV-2) (UniProt P0DTC2). In words: BLI. (In general: Biolayer interferometry detects binding as a change in optical thickness at a sensor tip.)
The target of assay [2] is SARS2 S trimer Omicron BA.1 (SARS-CoV-2) (UniProt P0DTC2). In words: BLI.
The target of assay [3] is SARS2 RBD Omicron BA.1 (SARS-CoV-2) (UniProt P0DTC2). The assay can be described thus: ELISA. On the technique in general: An ELISA detects its analyte on a solid surface through an enzyme-linked reagent.
The target in assay [4] is SARS2 S trimer Omicron BA.1 (SARS-CoV-2) (UniProt P0DTC2). The assay can be described thus: ELISA.

Take F6-ab8-Fc (from UniProt P01857): the pKd (in general, the Kd on a negative log10 scale, so that one unit is a factor of ten) was 7.41 in assay [1] and 7.68 in assay [2]. The figures for the pEC50 in assay [3] and in assay [4] were 7.72 and 7.43, respectively.
